{"source": "patent US20260226110A1", "molecular_target": "recombinant chimeric antigen DAM (A35-M1-A35-M1) (monkeypox virus isolate MPXV_USA_2022_MA001)", "data": [{"substance": "neutralizing antibody 7D11", "values": [{"measurement": "Kd", "result": 1.06, "unit": "nM"}, {"measurement": "koff", "result": 0.000908, "unit": "s⁻¹"}, {"measurement": "kon", "result": 857000, "unit": "M⁻¹ s⁻¹"}]}]}
